Tested on: DMO protein
Test: Western blot analysis of DMO targeted with pea RbcS CTP (related art)

B1: RbcS CTP: Pea Rubisco small subunit CTP including the 27 aa coding sequence, SEQ ID NO:1 (protein, listed as Pisum sativum)
chain: MASMISSSAVTTVSRASRGQSAAMAPFGGLKSMTGFPVRKVNTDITSITSNGGRVKCMQVWPPIGKKKFETLSYLPPLTRDSRA
  correctly processed DMO protein band: ~38 kDa
  larger band (DMO and the 27 aa of RbcS coding region): ~41 kDa
